Pooled drug test results. Numbers come from NIAID ChemDB, via PubChem.

Common to all: whole-cell or culture tests; species: Mycobacterium tuberculosis

Rows are shuffled and stem from different studies. An empty or dashed field is not shown. A number after MIC or MFC names an inhibition level or a share of isolates. ECn is the concentration giving n% inhibition of infection, replication or growth. Percent inhibition refers to the dose given; in toxicity tests it is the harm to the cells. MIC bound: limit read from a one-dose screen. Two numbers with a dash give a range or band.

compound	method	strain or isolate	endpoint	setting	cell line	changes	tested at	value
NC(=S)c1cnc(C(=O)c2ccccc2)cn1	resazurin	H37Rv	EC50					>6.25 µg/mL
CC(=O)NC[C@H]1CN(c2ccc(N3CCN(c4ccc([N+](=O)[O-])s4)CC3)c(F)c2)C(=O)O1		SGPGI	MIC					1 µg/mL
O=C(Nc1ccc(Cl)cc1)c1ccc(Cl)cc1OS(=O)(=O)c1ccccc1		H37Rv	MIC	21 d				8 µM
CN[C@@H]1[C@@H](O)[C@@H](O[C@@H]2[C@@H](O)[C@H](O[C@H]3O[C@H](CN)CC[C@H]3N)[C@@H](N)C[C@H]2N)OC[C@]1(C)O		9449/2007	MIC					1.05 µM
CO[C@H]1/C=C/O[C@@]2(C)Oc3c(C)c(O)c4c(O)c(c(/C=N/N5CCN(C6CCCC6)CC5)c(O)c4c3C2=O)NC(=O)/C(C)=C\C=C\[C@H](C)[C@H](O)[C@@H](C)[C@@H](O)[C@@H](C)[C@H](OC(C)=O)[C@@H]1C		13268	MIC					0.04 µg/mL
CCNC(=O)c1c(NC(=O)c2c(F)c(F)c(F)c(F)c2F)sc2c1CCN(CC)C2	low oxygen		EC90					15 µM
c1ccc(Nc2nnc3nc(-c4ccccc4)c(-c4ccccc4)nn23)cc1	BACTEC	H37Rv	inhibition				12.5 µg/mL	62%
CC(=O)Nc1ccc(OCC(=O)N/N=C/c2ccc(N(C)C)cc2)cc1		H37Rv	EC50					>12.5 µg/mL
O=C(Nc1cccc(Br)c1)c1ccc(Cl)cc1OS(=O)(=O)c1ccccc1		H37Rv	MIC	14 d				16 µM
NC(=O)c1cnc(C(=O)c2ccc(O)cc2)cn1	resazurin	H37Rv	inhibition				6.25 µg/mL	0%
Nc1nc2nc3c(nc2c(=O)[nH]1)CN(c1ccc(C(=O)O)cc1)C3=O	BACTEC	H37Rv	MIC bound					>12.8 µg/mL
CC(=O)Nc1ccc(OCC(=O)NN2C(=O)C(C)SC2c2ccc(Cl)cc2)cc1		H37Rv	EC50					>12.5 µg/mL
CCOC(=O)c1c(NC(=O)c2c(F)c(F)c(F)c(F)c2F)sc2c1CCNC2=O	turbidity	H37Rv	EC90			gyrA mutant (D94N)		3.4 µM
CN(C)CCC(O)(c1cccc2ccccc12)C(c1ccccc1)c1cc2cc(Br)ccc2[nH]c1=O		H37Rv	MIC90					8.58 µg/mL
N#CC1C(=O)Nc2cccnc21	BACTEC	H37Rv	MIC bound					>12.5 µg/mL
O=C(O)c1cn(-c2ccc(F)cc2F)c2cc(N3CCC(n4c(=O)[nH]c5cc(Cl)ccc54)CC3)c([N+](=O)[O-])cc2c1=O		ATCC35801	MIC					5.5 µM
O=[N+]([O-])c1ccc(/C=N\O)o1	resazurin	H37Rv	inhibition				6.25 µg/mL	100%
Nc1sc(-c2ccccc2)cc1C(=O)O	resazurin	H37Rv	MIC					50 µg/mL
CC(=O)Nc1ccc(OCC(=O)NN2C(=O)CSC2c2ccccc2)cc1		H37Rv	EC50					>12.5 µg/mL
Cc1nnsc1C(=O)NCc1c(F)cccc1Cl	resazurin	H37Rv	inhibition				6.25 µg/mL	2%
O=C(Nc1cccc(Cl)c1)c1ccc(Cl)cc1OS(=O)(=O)c1ccccc1		H37Rv	MIC	21 d				16 µM
CCn1c(O)c(C(=O)Nc2cccs2)c(=O)n(CC)c1=S		H37Rv	MIC					12.5 µg/mL
CC[C@H]1OC(=O)[C@H](C)[C@@H](O[C@H]2C[C@@](C)(OC)[C@@H](O)[C@H](C)O2)[C@H](C)[C@@H](O[C@@H]2O[C@H](C)C[C@H](N(C)C)[C@H]2O)[C@](C)(OC)C[C@@H](C)C(=O)[C@H](C)[C@@H](O)[C@]1(C)O		Isolate 2219	MIC					>4 µg/mL
CCN(CC)C(=O)C1CCCN(c2cc3c(cc2[N+](=O)[O-])c(=O)c(C(=O)O)cn3-c2ccc(F)cc2F)C1		ATCC35801	MIC					1.56 µM
NC(=O)c1cnc(C(=O)c2ccccc2O)cn1	resazurin	H37Rv	inhibition				6.25 µg/mL	2%
COc1ccc(/C=N/N(C(=O)c2ccncc2)C(=O)c2cnccn2)cc1		9 isolates (sensitive)	MIC					1–2 µg/mL
Cc1cc2oc(=O)c(C3=NN(c4ccccc4)C(c4ccc(C(F)(F)F)cc4)C3)c(O)c2cc1C	agar	INHR-MTB	MIC90			Isoniazid-resistant		28.25 µg/mL
CC1CN(c2cc3c(cc2F)c(=O)c(C(=O)O)cn3C(C)(C)C)CC(C)O1		ATCC35801	MIC					16.6 µM
C/C1=C\[C@H]2OC(=O)[C@@H](C)[C@@H]2CCC2(C)O[C@@H]2CC1		H37Rv	MIC					128 µg/mL
CN(C)c1cccc2c(Cl)c(Cl)c3cccc(N(C)C)c3c12		H37Rv	MIC		VERO			6.25 µg/mL
O=C(O)c1cnc(C(=O)c2ccccc2O)cn1	resazurin	H37Rv	inhibition				6.25 µg/mL	4%
ClCC[N+]12CC[N+](CCCl)(CC1)C2.O=S(=O)([O-])[O-]	BACTEC	H37Rv	inhibition				12.5 µg/mL	10%
CCN1CCc2c(sc(NC(=O)c3c(F)c(F)c(F)c(F)c3F)c2C#N)C1	turbidity	H37Rv	EC90			rpoB S522L mutant		21 µM
Cc1onc(-c2c(F)cccc2F)c1C(=O)N1CCN(c2cc3c(cc2F)c(=O)c(C(=O)O)cn3C(C)(C)C)CC1		ATCC35801	MIC					5.51 µM
CC1=CCC[C@@]2(C)O[C@H]2[C@H]2OC(=O)[C@@H](C)[C@@H]2CC1		H37Rv	MIC					128 µg/mL
C[CH2][Sn]1([CH2]C)[O]S(=O)(=O)[O]1	BACTEC	H37Rv	inhibition				12.5 µg/mL	67%
COc1cc(C2SC(C)C(=O)N2NC(=O)COc2ccc(NC(C)=O)cc2)cc(OC)c1OC		H37Rv	inhibition				12.5 µg/mL	27%
CC1CN(C(=O)/C=C/C(=O)OC2CCCCC2)CCN1C(=O)/C=C/C(=O)OC1CCCCC1		PAS-R	MIC					>12.5 µg/mL
CCOC(=O)c1c(NC(=O)C2C=C(C(F)(F)F)C=C2C(F)(F)F)sc2c1CCN(C(=O)OC(C)(C)C)C2	resazurin	H37Rv	MIC					>100 µg/mL
O=C(Nc1ccc(Cl)c(Cl)c1)c1ccc(Cl)cc1OS(=O)(=O)c1ccccc1		H37Rv	MIC	14 d				4 µM
C[C@@H]1C(=O)O[C@H]2[C@H]1CCC1(C)O[C@@H]1CC[C@@]1(C)O[C@@H]21		H37Rv	MIC					128 µg/mL
CCN1CCc2c(sc(NC(=O)c3c(F)c(F)c(F)c(F)c3F)c2C(=O)NC)C1	turbidity	H37Rv	EC50			rpoB S522L mutant		1.5 µM
COc1nc2ccc(Br)cc2cc1C(c1ccccc1)C(O)(CCCCN(C)C)c1cccc2ccccc12		H37Rv	MIC90					9.25 µg/mL
CCC1(C)NC(=O)OC1=O	BACTEC	H37Rv	inhibition				12.5 µg/mL	-8%
CN[C@@H]1[C@H](O[C@H]2[C@H](O[C@H]3[C@H](O)[C@@H](O)[C@H](N=C(N)N)[C@@H](O)[C@@H]3N=C(N)N)O[C@@H](C)[C@]2(O)C=O)O[C@@H](CO)[C@H](O)[C@H]1O		234/2005	MIC					27.5 µM
O=C(O)c1cocc1C(=O)O	BACTEC	H37Rv	inhibition				12.5 µg/mL	-2%
COc1cc(/C=N/N(C(=O)c2ccncc2)C(=O)c2cnccn2)ccc1O		H37Rv	MIC					4 µg/mL
O=C(/C=C/c1ccc(Cl)cc1Cl)c1c(O)c2ccccc2oc1=O	agar	INHR-MTB	MIC90			Isoniazid-resistant		>6.25 µg/mL
CC(C)(C)n1cc(C(=O)O)c(=O)c2cc([N+](=O)[O-])c(N3CCn4cc(C(=O)O)nc4C3)cc21		ATCC35801	MIC					0.44 µM
CC(=O)Nc1c(C)n(C)n(-c2ccccc2)c1=O	BACTEC	H37Rv	MIC bound					>12.8 µg/mL
COc1nc2cccc(Br)c2cc1C(c1ccccc1)C(O)(CCN(C)C)c1cccc2ccccc12		H37Rv	MIC90					44.13 µg/mL
Cc1ccc(Cn2nnc(-c3cc([N+](=O)[O-])cc([N+](=O)[O-])c3)n2)cc1		234/2005	MIC	14 d				0.125 µM
COc1ccc(/C=N/N=C(N)/C(N)=N/N=C/c2ccc(OC)cc2)cc1	BACTEC	H37Rv	MIC					≥12.5 µg/mL
COc1ccc(C2SC(C)C(=O)N2NC(=O)COc2ccc(NC(C)=O)cc2)cc1OC		H37Rv	inhibition				12.5 µg/mL	0%
Cc1ccc(NCCN(C)C)c2c(=O)c3cc(O)ccc3oc12		KM-R	MIC					12.5 µg/mL
O=C(/C=C/c1ccc(O)cc1O)c1c(O)c2ccccc2oc1=O	agar	H37Rv	MIC90					>6.25 µg/mL
C=C1C(=O)O[C@H]2[C@H]1CCC1(C)O[C@@H]1CC[C@@]1(C)O[C@@H]21		H37Rv	MIC					128 µg/mL
N#Cc1cnc(C(=O)c2ccccc2)cn1	resazurin	H37Rv	EC50					>6.25 µg/mL
CC(C)CCC[C@@H](C)CCC[C@@H](C)CCCC(C)CCO		H37Rv	MIC					2 µg/mL
O=C(c1ccncc1)N(/N=C/c1cccc([N+](=O)[O-])c1)C(=O)c1cnccn1		9 isolates (resistant)	MIC					>16 µg/mL
O=c1oc2ccccc2c(O)c1C1=NN(c2ccccc2)C(c2ccc(O)cc2O)C1	agar	H37Rv	MIC90					>6.25 µg/mL
COc1nc2ccc(Br)cc2cc1C(c1ccccc1)C(O)(CCCN(C)C)c1cccc2ccccc12		H37Rv	MIC90					56.96 µg/mL
COc1ccc(/C=N/N(C(=O)c2ccncc2)C(=O)c2cnccn2)c(O)c1		H37Rv	MIC					>16 µg/mL
CCC(=O)c1ccc2c(c1)N(CCCN1CCN(CCO)CC1)c1ccccc1S2.O=C(O)/C=C\C(=O)O.O=C(O)/C=C\C(=O)O	BACTEC	H37Rv	inhibition				12.5 µg/mL	79%
COC(=O)c1cnc(C(=O)c2ccccc2O)cn1	resazurin	H37Rv	inhibition				6.25 µg/mL	53%
N#Cc1c(NC(=O)c2c(F)c(F)c(F)c(F)c2F)sc2c1CCOC2	low oxygen		MIC					180 µM
C=C(C)[C@@H]1CC[C@]2(C(=O)O)CC[C@]3(C)[C@H](CC[C@@H]4[C@@]5(C)CC[C@@H](O)C(C)(C)[C@@H]5CC[C@]43C)[C@@H]12		H37Rv	MIC					64 µM
Nc1nc(Cl)c(Cl)nc1C(=O)O	BACTEC	H37Rv	MIC bound					>12.5 µg/mL
C=C1CCC[C@]2(C)CC[C@H]3C(=C)C(=O)O[C@@H]3[C@@H]12		H37Rv	MIC					64 µg/mL
NC(=S)c1cnc(C(=O)c2ccc(Cl)cc2)cn1	resazurin	H37Rv	inhibition				6.25 µg/mL	90%
CO[C@@H]1[C@@H](OC(=O)c2ccc(C)[nH]2)[C@@H](O)C(Oc2ccc3c(O)c(NC(=O)c4c[nH]c(C(=O)Nc5c(O)c6ccc(OC7OC(C)(C)[C@H](OC)[C@@H](OC(=O)c8ccc(C)[nH]8)[C@H]7O)c(C)c6oc5=O)c4C)c(=O)oc3c2C)OC1(C)C	BACTEC	H37Rv	MIC bound					≤12.8 µg/mL
COc1nc2ccc(-c3ccccc3)cc2cc1C(c1ccccc1)C(O)(CCN(C)C)c1cccc2ccccc12		H37Rv	MIC90					8.76 µg/mL
O=C(c1ccncc1)N(/N=C/c1cccc(Cl)c1)C(=O)c1cnccn1		9 isolates (sensitive)	MIC					0.5–1 µg/mL
COc1ccc(OC)c2c(Cl)cc(N(C)C)nc12	BACTEC	H37Rv	inhibition				12.5 µg/mL	36%
COc1c(N2CCNC(C)C2)c(F)cc2c(=O)c(C(=O)O)cn(C3CC3)c12		ATCC35801	MIC					1.04 µM
CC(C)=C[C@H](O)C[C@@H](C)[C@H]1CC[C@@]2(C)C3=C(CC[C@]12C)[C@@]1(C)CCC(=O)C(C)(C)[C@@H]1CC3		H37Rv	MIC					64–128 µg/mL
Cc1ccc(NC(=O)c2c(Br)c(Br)c(Br)c(Br)c2C(=O)O)cc1Cl	BACTEC	H37Rv	MIC bound					>12.5 µg/mL
O=C(Nc1cccc(F)c1)c1ccc(Cl)cc1OS(=O)(=O)c1ccccc1		H37Rv	MIC	21 d				16 µM
CC(=O)[C@@H]1CC[C@]2(C)CC[C@]3(C)[C@H](CC[C@@H]4[C@@]5(C)CC[C@H](O)C(C)(C)[C@@H]5CC[C@]43C)[C@@H]12		H37Rv	MIC					>128 µM

The last 5 rows once more:

compound | method | strain or isolate | endpoint | setting | cell line | changes | tested at | value
COc1c(N2CCNC(C)C2)c(F)cc2c(=O)c(C(=O)O)cn(C3CC3)c12 |  | ATCC35801 | MIC |  |  |  |  | 1.04 µM
CC(C)=C[C@H](O)C[C@@H](C)[C@H]1CC[C@@]2(C)C3=C(CC[C@]12C)[C@@]1(C)CCC(=O)C(C)(C)[C@@H]1CC3 |  | H37Rv | MIC |  |  |  |  | 64–128 µg/mL
Cc1ccc(NC(=O)c2c(Br)c(Br)c(Br)c(Br)c2C(=O)O)cc1Cl | BACTEC | H37Rv | MIC bound |  |  |  |  | >12.5 µg/mL
O=C(Nc1cccc(F)c1)c1ccc(Cl)cc1OS(=O)(=O)c1ccccc1 |  | H37Rv | MIC | 21 d |  |  |  | 16 µM
CC(=O)[C@@H]1CC[C@]2(C)CC[C@]3(C)[C@H](CC[C@@H]4[C@@]5(C)CC[C@H](O)C(C)(C)[C@@H]5CC[C@]43C)[C@@H]12 |  | H37Rv | MIC |  |  |  |  | >128 µM